Measurements taken from article PMC12568301 (Veterinary Sciences, 2025).

Tested on: BHK-21 cells

For Gomisin A, which “Toxicity to BHK-21 cells in words” value is on record?
The value was “moderate cytotoxicity”.

What about the CC50 (hamster) of the same substance?
Its CC50 is 44 ± 1.64 µM.

What about the “Cytotoxicity CC10 (maximum non-toxic concentration)” value (hamster) of the same substance?
The value was 25.39 ± 1.40 µM.
